Construct, isoform or probe ends are uncertain for at least one entry. Protein sequences can lack the tags named with them.
Tested on: T1, HpyC1I restriction endonuclease (Helicobacter pylori)
T1 sequence: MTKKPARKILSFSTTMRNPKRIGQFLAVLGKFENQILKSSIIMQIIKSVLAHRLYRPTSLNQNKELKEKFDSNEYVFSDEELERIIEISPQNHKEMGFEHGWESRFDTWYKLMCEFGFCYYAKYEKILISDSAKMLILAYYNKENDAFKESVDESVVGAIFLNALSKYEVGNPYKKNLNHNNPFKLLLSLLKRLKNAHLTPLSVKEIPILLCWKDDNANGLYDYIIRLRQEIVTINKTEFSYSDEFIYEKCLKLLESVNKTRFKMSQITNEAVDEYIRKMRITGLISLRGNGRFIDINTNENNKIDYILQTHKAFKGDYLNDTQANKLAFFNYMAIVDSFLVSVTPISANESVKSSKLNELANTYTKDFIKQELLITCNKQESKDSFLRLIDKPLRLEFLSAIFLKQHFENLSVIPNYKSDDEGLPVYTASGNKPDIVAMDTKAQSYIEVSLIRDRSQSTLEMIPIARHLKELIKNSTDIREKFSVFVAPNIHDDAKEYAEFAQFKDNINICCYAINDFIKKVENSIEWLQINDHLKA
Assay: enzyme reaction in vitro
Conditions: 10 mM Bis Tris Propane-HCl, 10 mM MgCl2, 1 mM DTT pH 7.0, 100 ug/ml BSA, 37 C; about 60 ng protein digests lambda DNA in 1 h; one-base 5' overhang; 10 junctions sequenced; purified recombinant protein; only the motif is given

In the case of “CCATC (double strand) [HpyC1I recognition site in lambda DNA]”, the “activity on this sequence” value is reported as “active”.

Source: patent publication US20050202443
